# Assay results: paper PMC7191901, “Hybrid inhibitors of DNA and HDACs remarkably enhance cytotoxicity in leukaemia cells” (Journal of Enzyme Inhibition and Medicinal Chemistry, 2020)
# Sequences of proteins named here, by UniProt entry; tags and fusion partners are left off. A change or cut given only in a name is not applied to a line headed by its entry.
# UniProt O15379: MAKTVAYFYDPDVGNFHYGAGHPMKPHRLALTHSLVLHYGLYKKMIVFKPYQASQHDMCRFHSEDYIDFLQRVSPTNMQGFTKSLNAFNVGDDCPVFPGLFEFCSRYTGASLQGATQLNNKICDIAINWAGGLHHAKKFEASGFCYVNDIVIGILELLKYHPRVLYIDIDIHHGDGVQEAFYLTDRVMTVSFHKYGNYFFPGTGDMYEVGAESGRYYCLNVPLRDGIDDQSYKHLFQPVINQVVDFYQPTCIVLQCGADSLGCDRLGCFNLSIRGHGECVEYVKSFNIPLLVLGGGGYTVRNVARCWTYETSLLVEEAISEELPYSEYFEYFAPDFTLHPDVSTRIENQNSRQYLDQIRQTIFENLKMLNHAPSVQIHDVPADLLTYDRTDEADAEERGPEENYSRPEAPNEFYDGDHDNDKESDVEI
# UniProt Q9UBN7: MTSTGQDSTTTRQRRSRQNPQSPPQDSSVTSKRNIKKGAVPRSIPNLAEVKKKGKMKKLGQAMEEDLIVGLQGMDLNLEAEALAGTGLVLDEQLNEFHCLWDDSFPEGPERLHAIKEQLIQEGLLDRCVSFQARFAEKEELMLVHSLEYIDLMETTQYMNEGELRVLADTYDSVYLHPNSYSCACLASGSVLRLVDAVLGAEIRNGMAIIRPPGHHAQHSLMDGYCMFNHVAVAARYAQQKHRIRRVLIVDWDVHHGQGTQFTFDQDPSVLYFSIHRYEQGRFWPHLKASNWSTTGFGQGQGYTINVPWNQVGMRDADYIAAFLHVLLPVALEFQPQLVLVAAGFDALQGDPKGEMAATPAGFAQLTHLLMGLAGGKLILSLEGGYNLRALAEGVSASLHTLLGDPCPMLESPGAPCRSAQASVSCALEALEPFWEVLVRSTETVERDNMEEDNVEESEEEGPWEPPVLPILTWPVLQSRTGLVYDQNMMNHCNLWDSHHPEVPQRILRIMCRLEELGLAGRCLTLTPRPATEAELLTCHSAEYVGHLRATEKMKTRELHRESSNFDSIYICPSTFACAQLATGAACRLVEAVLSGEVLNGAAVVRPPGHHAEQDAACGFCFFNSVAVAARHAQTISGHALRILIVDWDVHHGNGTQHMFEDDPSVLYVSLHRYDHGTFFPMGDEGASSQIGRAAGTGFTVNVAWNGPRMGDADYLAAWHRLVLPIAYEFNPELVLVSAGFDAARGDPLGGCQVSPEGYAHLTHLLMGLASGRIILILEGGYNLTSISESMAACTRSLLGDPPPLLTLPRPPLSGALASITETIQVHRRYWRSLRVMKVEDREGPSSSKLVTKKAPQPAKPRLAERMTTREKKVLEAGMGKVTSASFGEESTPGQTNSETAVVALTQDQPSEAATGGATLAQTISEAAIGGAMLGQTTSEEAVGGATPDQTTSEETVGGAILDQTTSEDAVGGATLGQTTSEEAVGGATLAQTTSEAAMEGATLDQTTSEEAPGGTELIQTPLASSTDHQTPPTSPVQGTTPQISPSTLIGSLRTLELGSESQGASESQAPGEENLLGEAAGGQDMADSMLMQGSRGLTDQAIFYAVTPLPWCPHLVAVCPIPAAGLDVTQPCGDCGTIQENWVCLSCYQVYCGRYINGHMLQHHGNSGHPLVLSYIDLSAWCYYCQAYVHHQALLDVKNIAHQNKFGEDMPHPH
# UniProt Q13547, whole entry, looked up: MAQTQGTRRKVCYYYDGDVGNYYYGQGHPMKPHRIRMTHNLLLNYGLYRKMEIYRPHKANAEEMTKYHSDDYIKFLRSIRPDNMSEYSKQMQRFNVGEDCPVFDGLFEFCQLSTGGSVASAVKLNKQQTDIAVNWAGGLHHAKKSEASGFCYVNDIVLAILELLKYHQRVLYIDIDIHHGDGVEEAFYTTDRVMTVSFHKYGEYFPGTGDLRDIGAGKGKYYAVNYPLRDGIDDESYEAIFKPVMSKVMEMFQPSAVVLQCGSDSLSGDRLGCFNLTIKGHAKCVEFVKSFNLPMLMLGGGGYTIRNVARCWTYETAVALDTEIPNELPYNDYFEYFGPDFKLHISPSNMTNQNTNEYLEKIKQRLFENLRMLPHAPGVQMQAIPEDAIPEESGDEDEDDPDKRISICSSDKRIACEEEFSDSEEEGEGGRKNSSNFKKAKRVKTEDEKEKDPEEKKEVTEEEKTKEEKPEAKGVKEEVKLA
# Legend:
# MCF-7 cells = experiment: Cell proliferation (MTS) assay, MCF-7; format: cell-based, human
# HL-60 cells [1] = experiment: Cell cycle distribution by flow cytometry; format: cell-based, human; conditions: for G2/M fraction: 24 h, HL-60
# γ-H2AX = experiment: Western blot, γ-H2AX in HL-60 cells; conditions: HL-60, 24 h, indicated concentrations
# [2] = system: PARP, caspase 3, and caspase 8; experiment: Western blot, apoptotic biomarkers in HL-60 cells; format: cell-based, human; conditions: HL-60, 24 h, indicated concentrations
# U266 cells = experiment: Cell proliferation (MTS) assay, U266; format: cell-based; conditions: read-out: GI50, U266, 72 h
# H1975 cells = experiment: Cell proliferation (MTS) assay, H1975; format: cell-based; conditions: read-out: GI50, H1975, 72 h
# A2780 cells = experiment: Cell proliferation (MTS) assay, A2780; format: cell-based, human; conditions: read-out: GI50 values, A2780, 3 days (72 h)
# Rad52 = experiment: Western blot, Rad52 in HL-60 cells; conditions: HL-60, 24 h, indicated concentrations
# U-937 cells = experiment: Cell proliferation (MTS) assay, U-937; format: cell-based, human
# MDA-MB-231 cells = experiment: Cell proliferation (MTS) assay, MDA-MB-231; format: cell-based, human; conditions: read-out: GI50 values, MDA-MB-231, 3 days (72 h), listed as Chloram-HDi (3)
# HDAC3 = HDAC3 (Homo sapiens, UniProt O15379); experiment: Enzymatic HDAC fluorogenic assay, HDAC3; conditions: read-out: IC50 values, HDAC3; class I
# MCF-7/ADR cells = experiment: Cell proliferation (MTS) assay, MCF-7/ADR; format: cell-based; conditions: read-out: GI50, MCF-7/ADR, 72 h
# HL-60 cells [3] = experiment: Comet assay (DNA damage); format: cell-based, human; conditions: 10 µM, 24 h
# A549 cells = experiment: Cell proliferation (MTS) assay, A549; format: cell-based; conditions: read-out: GI50, A549, 72 h
# HDAC6 = HDAC6 (Homo sapiens, UniProt Q9UBN7); experiment: Enzymatic HDAC fluorogenic assay, HDAC6; conditions: read-out: IC50 values, HDAC6; class IIb
# [4] = system: Ac-α-tubulin and Ac-histone H3; experiment: Western blot, acetylation of α-tubulin and histone H3 in HL-60 cells; format: cell-based, human; conditions: HL-60, 24 h, indicated concentrations
# HDAC1 = HDAC1 (Homo sapiens, UniProt Q13547); experiment: Enzymatic HDAC fluorogenic assay, HDAC1; conditions: read-out: IC50 values, HDAC1; class I
# [5] = system: primary human peripheral blood mononuclear cells (PBMCs); experiment: Cytotoxicity on normal PBMCs (MTS); conditions: 3 days, MTS assay
# HL-60 cells [6] = experiment: Cell proliferation (MTS) assay, HL-60; format: cell-based, human
smiles,measurement,setting,value
O=C(CCCc1ccc(N(CCCl)CCCl)cc1)NO,GI50,"MCF-7 cells; read-out: GI50 values, MCF-7, 3 days, listed as Chloram-HDi (3)",245 µM
same,GI50,"MCF-7 cells; read-out: GI50 values, MCF-7, 3 days, listed as chloram-HDi",245 µM
same,G2/M fraction,"HL-60 cells [1]; 0.1 µM, DMSO control 21.8%",30.8%
same,G2/M fraction,HL-60 cells [1]; 0.5 µM,52%
same,G2/M fraction,HL-60 cells [1]; 1 µM,62.4%
same,cell population at sub G0/G1 phases,"HL-60 cells [1]; HL-60, 24 h",increased the cell population at sub G0/G1 phases in a dose-dependent manner
same,cell population at the G0/G1 phases,"HL-60 cells [1]; HL-60, 24 h",reduction of the cell population at the G0/G1 phases in a dose-dependent manner
same,expression of γ-H2AX,γ-H2AX,more significantly increased the expression of γ-H2AX than chlorambucil in a dose-dependent manner
same,"cleavage of PARP, caspase 3, and caspase 8",[2],"significantly promoted the cleavage of PARP, caspase 3, and caspase 8 in a dose-dependent manner"
same,GI50,U266 cells,38.1 µM
same,GI50,H1975 cells,76.7 µM
same,GI50,A2780 cells,21.2 µM
same,protein level of Rad52,Rad52,downregulated the protein level of Rad52 in a dose-dependent manner
same,GI50,"U-937 cells; read-out: GI50 values, U-937, 3 days (72 h), MTS assay",1750 nM
same,IC50,"U-937 cells; read-out: IC50, U937",1750 nM
same,GI50,MDA-MB-231 cells,95.9 µM
same,IC50,HDAC3,6.2 µM
same,GI50,MCF-7/ADR cells,62.1 µM
same,% DNA content in the tail,HL-60 cells [3],25.5%
same,GI50,A549 cells,65.3 µM
same,IC50,HDAC6,694 nM
same,acetylation of α-tubulin and histone H3,[4],dose-dependently increased the acetylation of α-tubulin and histone H3
same,expression level of α-tubulin,[4],decreased the expression level of α-tubulin in a dose-dependent manner
same,IC50,HDAC1,4.5 µM
same,toxicity to normal human PBMCs,[5]; 0.01-10 µM,not toxic to normal human PBMCs up to 10 µM concentration
same,IC50,"[5]; read-out: IC50, normal PBMCs",> 10 µM
same,GI50,"HL-60 cells [6]; read-out: GI50 values, HL-60, 3 days (72 h), MTS assay",1240 nM
same,IC50,"HL-60 cells [6]; read-out: IC50, HL-60",1240 nM

# Where two headings read alike, the source gives them in different places.
